Pooled drug test results. Numbers come from NIAID ChemDB, via PubChem.

Common to all: target-level tests

Rows are shuffled and stem from different studies. a–b is a range or a potency band. Blank or dashed fields: not listed here. ICn: concentration for n% inhibition. Inhibition is in % at the dose shown (toxicity tests: loss of growth or viability).

compound | protein | endpoint | tested at | organism | value
CNC(=O)c1c(-c2ccc(F)cc2)oc2cc(N(Cc3ccc(OC)cc3)S(C)(=O)=O)c(OC(C)C)cc12 | Nonstructural protein 5B | IC50 |  | Hepatitis C virus | ≤0.5 µM
O=C(O)c1sc(-c2ccccc2)cc1NS(=O)(=O)c1c(F)cc(F)cc1F | NS3 ATPase | IC50 |  | Hepatitis C virus | <5 µM
O=C(Nc1cccc(-c2nc(O)c(O)c(C(=O)O)n2)c1)Nc1cccc(-c2nc(O)c(O)c(C(=O)O)n2)c1 | HCV polymerase | IC50 |  | Hepatitis C virus | <100 µM
Cc1ccc2c(c1)C(=O)N=C2N(c1cc(-c2ccccc2)sc1C(=O)O)C(C)C | NS3 ATPase | IC50 |  | Hepatitis C virus | 5–20 µM
COc1nc(Nc2ccc3cn[nH]c3c2)nc(N2CCN(C)CC2)n1 | DNA polymerase | inhibition | 0.01 µg/mL | Hepatitis B virus | 10%
Nc1ccccc1S(=O)(=O)Nc1cc(-c2ccccc2)sc1C(=O)O | NS3 ATPase | IC50 |  | Hepatitis C virus | <5 µM
O=C(O)c1ccc2c(c1)nc(-c1ccc3nc(-c4ccc(-n5ccnc5)cc4)ccc3c1)n2C1CCCCC1 | NS5B polymerase | inhibition | 100 µM | Hepatitis C virus | 97.41%
CNC1N=C(OC)N=C(Nc2ccc3cn[nH]c3c2)N1CN | DNA polymerase | IC50 |  | Hepatitis B virus | 0.1–1 µg/mL
O=C(Nc1ccc(F)cc1)Nc1cccc(-c2nc(C(=O)O)c(O)c(=O)[nH]2)c1 | HCV polymerase | IC50 |  | Hepatitis C virus | <100 µM
CNC(=O)c1c(-c2ccc(F)cc2)oc2cc(N3CCOCC3)c(OCc3cnc[nH]3)cc12 | Nonstructural protein 5B | IC50 |  | Hepatitis C virus | ≤0.5 µM
Cc1ccc(C(=O)N(Cc2ccccc2)c2cc(-c3ccccc3)sc2C(=O)O)cc1 | NS3 ATPase | IC50 |  | Hepatitis C virus | <5 µM
COc1ccc(-c2ccc(OC)cc2-c2ccc3cc(-c4nc5cc(C(=O)O)ccc5n4C4CCCCC4)ccc3n2)cc1 | NS5B polymerase | inhibition | 33 µM | Hepatitis C virus | 99.33%
CON1C(Nc2ccc3cn[nH]c3c2)=NC(NC(C)C)=NC1NC(C)C | DNA polymerase | IC50 |  | Hepatitis B virus | 0.1–1 µg/mL
CNC(=O)c1c(-c2ccc(F)cc2)oc2cc(N3CCC(S(C)(=O)=O)C3)c(OC(C)C)cc12 | Nonstructural protein 5B | IC50 |  | Hepatitis C virus | ≤0.5 µM
CC(C)(C)c1ccc(CN(C(=O)C2CC2)c2cc(-c3ccccc3)sc2C(=O)O)cc1 | NS3 ATPase | IC50 |  | Hepatitis C virus | 5–20 µM
CC(=O)N1CCN(c2c(-c3ccc(OCc4ccccc4)cc3)cnc3c(-c4nn[nH]n4)cnn23)CC1 | RNA-dependent RNA polymerase | IC50 |  | Hepatitis C virus | >10 µM
CNC(=O)c1c(-c2ccc(F)cc2)oc2cc(N3CCOCC3)c(OCC3CC3)cc12 | Nonstructural protein 5B | IC50 |  | Hepatitis C virus | ≤0.5 µM
COc1nc(NCCO)nc(Nc2ccc3cn[nH]c3c2)n1 | DNA polymerase | inhibition | 0.01 µg/mL | Hepatitis B virus | 20%
Cc1ccccc1S(=O)(=O)Nc1cc(-c2ccccc2C(F)(F)F)sc1C(=O)O | NS3 ATPase | IC50 |  | Hepatitis C virus | 5–20 µM
O=C(O)c1cnn2c(C3CCCCC3)c(-c3cccc(OCc4ccc(OC(F)(F)F)c(Cl)c4)c3)cnc12 | RNA-dependent RNA polymerase | IC50 |  | Hepatitis C virus | >10 µM
COc1nc(NCCCN2CCOCC2)nc(Nc2ccc3[nH]ncc3c2)n1 | Nonstructural protein 5B | inhibition | 1 µg/mL | Hepatitis C virus | 31%
O=C(O)c1ccc2c(c1)nc(-c1ccc3nc(-c4ccccc4)cc(Oc4ccccc4)c3c1)n2C1CCCCC1 | NS5B polymerase | inhibition | 33 µM | Hepatitis C virus | 101%
COc1ccccc1-c1cc(-c2ccc(F)cc2)nc2cc(C(=O)O)nn12 | RNA-dependent RNA polymerase | IC50 |  | Hepatitis C virus | >10 µM
CNC(=O)c1c(-c2ccc(F)cc2)oc2cc(N(CS(C)(=O)=O)C(=O)NC)c(OC)cc12 | Nonstructural protein 5B | IC50 |  | Hepatitis C virus | ≤0.5 µM
O=C(O)c1cc2nccc(-c3ccccc3-c3ccsc3)n2n1 | RNA-dependent RNA polymerase | IC50 |  | Hepatitis C virus | 1–10 µM
O=C(O)c1ccc2c(c1)nc(-c1ccc3nc(-c4cccc5ccccc45)ccc3c1)n2C1CCCCC1 | NS5B polymerase | inhibition | 33 µM | Hepatitis C virus | 98.79%
Cc1ccc(C(=O)N(C)c2cc(-c3cccc(Cl)c3)sc2C(=O)O)cc1 | NS3 ATPase | IC50 |  | Hepatitis C virus | <5 µM
COc1nc(NCCc2c[nH]c3ccccc23)nc(Nc2ccc3cn[nH]c3c2)n1 | Nonstructural protein 5B | inhibition | 0.1 µg/mL | Hepatitis C virus | 6%
Cn1c(C(=O)Nc2ccsc2-c2nc(C(=O)O)c(O)c(=O)[nH]2)cnc1Sc1ncc(C(F)(F)F)cc1Cl | HCV polymerase | IC50 |  | Hepatitis C virus | <25 µM
COc1nc(Nc2ccc3cn[nH]c3c2)nc(NC2CC2)n1 | DNA polymerase | inhibition | 0.1 µg/mL | Hepatitis B virus | 21%
CC(C1CCNCC1)N(C(=O)c1ccc(Cl)cc1Cl)c1cc(-c2ccccc2)sc1C(=O)O.O=C([O-])C(F)(F)F | NS3 ATPase | IC50 |  | Hepatitis C virus | <5 µM
COc1ccc(COc2cccc(-c3nc(C(=O)O)c(O)c(=O)[nH]3)c2)cc1 | HCV polymerase | IC50 |  | Hepatitis C virus | <100 µM
NCCCCC(NC(=O)c1ccc2c(c1)nc(-c1ccc3nc(-c4ccccc4)ccc3c1)n2C1CCCCC1)C(=O)O | NS5B polymerase | inhibition | 33 µM | Hepatitis C virus | 60.45%
NC(C(=O)Nc1ccsc1-c1nc(C(=O)O)c(O)c(=O)[nH]1)(c1ccccc1)c1ccccc1 | HCV polymerase | IC50 |  | Hepatitis C virus | <25 µM
CNC(=O)c1c(-c2ccc(F)cc2)oc2cc(C(C)O)c(OC(C)C)cc12 | Nonstructural protein 5B | IC50 |  | Hepatitis C virus | ≤0.5 µM
CN(C)CCNC(=O)c1ccc(-c2ccccc2)c(-c2ccc3cc(-c4nc5cc(C(=O)O)ccc5n4C4CCCCC4)ccc3n2)c1 | NS5B polymerase | inhibition | 100 µM | Hepatitis C virus | 99.97%
O=C(Nc1cscc1-c1nc(C(=O)O)c(O)c(=O)[nH]1)NS(=O)(=O)c1ccc(Cl)cc1 | HCV polymerase | IC50 |  | Hepatitis C virus | <25 µM
O/N=C\c1cnn2c(C3CCCCC3)c(-c3ccc(OCc4ccccc4)cc3)cnc12 | RNA-dependent RNA polymerase | IC50 |  | Hepatitis C virus | >10 µM
COc1nc(NCCO)nc(Nc2ccc3[nH]ncc3c2)n1 | DNA polymerase | inhibition | 0.01 µg/mL | Hepatitis B virus | 22%
O=C(NCc1ccc(Cl)cc1Cl)Nc1ccccc1-c1nc(C(=O)O)c(O)c(=O)[nH]1 | HCV polymerase | IC50 |  | Hepatitis C virus | <100 µM
COc1nc(Nc2ccc3[nH]ncc3c2)nc(NN2CCN(C)CC2)n1 | Nonstructural protein 5B | inhibition | 10 µg/mL | Hepatitis C virus | 59%
O=C(Nc1cscc1-c1nc(C(=O)O)c(O)c(=O)[nH]1)OCc1ccc(F)cc1F | HCV polymerase | IC50 |  | Hepatitis C virus | <25 µM

Repeating the final 2 entries:

compound | protein | endpoint | tested at | organism | value
COc1nc(Nc2ccc3[nH]ncc3c2)nc(NN2CCN(C)CC2)n1 | Nonstructural protein 5B | inhibition | 10 µg/mL | Hepatitis C virus | 59%
O=C(Nc1cscc1-c1nc(C(=O)O)c(O)c(=O)[nH]1)OCc1ccc(F)cc1F | HCV polymerase | IC50 |  | Hepatitis C virus | <25 µM